In patent publication US8232271B2 (priority 2008, dated 2012) one finds IC50 data, which are given here for 4 compounds.

What is called IC50 is the concentration at which inhibition is half-maximal.

For this experiment, the target named is HCV polymerase (NS5B570n-Con1) (Hepatitis C virus genotype 1b, UniProt Q9WMX2). Briefly: HCV NS5B RNA polymerase activity assay. It counts as biochemical, HCV Con1 strain. The settings on record: read-out: IC50 NS5B polymerase assay (Example 33). As to the method:
The enzymatic activity of HCV polymerase (NS5B570n-Con1) was measured as the incorporation of radiolabeled nucleotide monophosphates into acid insoluble RNA products. Unincorporated radiolabeled substrate was removed by filtration and scintillant was added to the washed and dried filter plate containing radiolabeled RNA product. The amount of RNA product generated by NS5B570-Con1 at the end of the reaction was directly proportional to the amount of light emitted by the scintillant.
The N-terminal 6-histidine tagged HCV polymerase, derived from HCV Con1 strain, genotype 1b (NS5B570n-Con1) contains a 21 amino acid deletion at the C-terminus relative to the full-length HCV polymerase and was purified from E. coli strain BL21(DE) pLysS. The construct, containing the coding sequence of HCV NS5B Con1 (GenBank accession number AJ242654) was inserted into the plasmid construct pET17b, downstream of a T7 promoter expression cassette and transformed into E. coli. A single colony was grown overnight as a starter culture and later used inoculate 10 L of LB media supplemented with 100 μg/mL ampicillin at 37° C. Protein expression was induced by the addition of 0.25 mM isopropyl-β-D-thiogalactopyranoside (IPTG) when optical density at […] of the culture was between 0.6 and 0.8 and cells were harvested after 16 to 18 h at 30° C. NS5B570n-Con1 was purified to homogeneity using a three-step protocol including subsequent column chromatography on Ni-NTA, SP-Sepharose HP and Superdex 75 resins.
Each 50 μl enzymatic reaction contained 20 nM RNA template derived from the complementary sequence of the Internal Ribosome Entry Site (cIRES), 20 nM NS5B570n-Con1 enzyme, 0.5 μCi of tritiated UTP (Perkin Elmer catalog no. TRK-412; specific activity: 30 to 60 Ci/mmol; stock solution concentration from 7.5×10^-5 M to 20.6×10^-6 M), 1 μM each ATP, CTP, and GTP, 40 mM Tris-HCl pH 8.0, 40 mM NaCl, 4 mM DTT (dithiothreitol), 4 mM MgCl2, and 5 μl of compound serial diluted in DMSO. Reaction mixtures were assembled in 96-well filter plates (cat #MADVN0B, Millipore Co.) and incubated for 2 h at 30° C. Reactions were stopped by addition of 10% final (v/v) trichloroacetic acid and incubated for 40 min at 4° C. […]
The amount of light emitted from the scintillant was converted to counts per minute (CPM) on a Topcount® plate reader (Perkin-Elmer, Energy Range: Low, Efficiency Mode: Normal, Count Time: 1 min, Background Subtract: none, Cross talk reduction: Off).
Data was analyzed in Excel® (Microsoft®) and ActivityBase® (Idbs®). […] All data was expressed as a percentage of the positive control. […]
For `COc1cc(CNC(=O)c2ccccc2)c(-c2ccc[nH]c2=O)cc1C(C)(C)C`, the IC50 is 19 nM.
The figure for `COc1cc(CNC(=O)[C@H]2C[C@H](NS(C)(=O)=O)CN2)c(-c2ccc[nH]c2=O)cc1C(C)(C)C` is 169 nM; for `CCCCN(Cc1cc(OC)c(C(C)(C)C)cc1-c1ccc[nH]c1=O)S(C)(=O)=O` it is 86 nM.
For the compound `COc1cc(CN(CC2CCC2)S(=O)(=O)C(C)C)c(-c2ccc[nH]c2=O)cc1C(C)(C)C`, the IC50 stood at 131 nM.
